Source: paper PMC8584173, “The Cytotoxic Effect of Copper (II) Complexes with Halogenated 1,3-Disubstituted Arylthioureas on Cancer and Bacterial Cells” (International Journal of Molecular Sciences, 2021)

Key:
Assay type in all cases: cell-based
[1] = system: PC3 (human metastatic prostate cancer); test: MTT cytotoxicity assay, PC3; details: IC50 for normal cell line (HaCaT)/IC50 PC3
Experimental: (§1) The human primary (SW480), metastatic (SW620) colon cancer, metastatic prostate cancer (PC3) and human immortal keratinocyte (HaCaT) cell lines were purchased from the American Type Culture Collection (ATCC, Rockville, USA). The cells were cultured in medium according to protocols (MEM for SW480 and SW620, RPMI 1640 for PC3 and DMEM for HaCaT cells) supplemented with 10% fetal bovine serum (FBS), penicillin (100 U/mL) and streptomycin (100 μg/mL) and cultured in 37 °C/ 5% CO2 humidified incubator. The cells were cultured until appropriate confluence was achieved (80–90%). Next, they were harvested by treatment with 0.25% trypsin (Gibco Life Technologies, USA) and used for studies.
(§2) Cells without studied compounds in medium were used as a control.
(§3) The cell viability was assessed by determination of MTT salt (3-(4,5-dimethylthiazol-2-yl)-2,5-diphenyltetrazolium bromide) conversion by mitochondrial dehydrogenase. MTT assay was performed as previously described. Experiments were repeated three times. Cell viability was presented as a percentage of MTT reduction in the treated cells versus the control cells. Number of viable cells cultured without studied compounds was assumed to be 100%. […] Thiourea complexes with the highest cytotoxic potential assessed by MTT determination (with the lowest IC50) were chosen for subsequent assessments of cytotoxicity mechanisms.

[2] = system: SW480 (human primary colon cancer); test: MTT cytotoxicity assay, SW480; details: IC50 for normal cell line (HaCaT)/IC50 SW480
Experimental: as §1, §2, §3

[3] = system: SW620 (human metastatic colon cancer); test: MTT cytotoxicity assay, SW620; details: IC50 for normal cell line (HaCaT)/IC50 SW620
Experimental: as §1, §2
The cell viability was assessed by determination of MTT salt (3-(4,5-dimethylthiazol-2-yl)-2,5-diphenyltetrazolium bromide) conversion by mitochondrial dehydrogenase. MTT assay was performed as previously described. Experiments were repeated three times. Cell viability was presented as a percentage of MTT reduction in the treated cells versus the control cells. Number of viable cells cultured without studied compounds was assumed to be 100%. Decreased relative MTT level means decreased cell viability.

[Cl][Cu][Cl] [CuCl2, copper (II) chloride, reference compound]
SI (selectivity index) [1]: 1.1 | SI (selectivity index) [2]: 1.0 | SI (selectivity index) [3]: 1.2
